From US8470822B2, “Folate mimetics and folate-receptor binding conjugates thereof” (Purdue Research Foundation, priority 2001, dated 2013)

By UniProt entry, the sequences of proteins in these tests, tags left out. Where a name states a change or a piece, a line headed by the entry shows the natural chain unless it says otherwise.
UniProt P15328: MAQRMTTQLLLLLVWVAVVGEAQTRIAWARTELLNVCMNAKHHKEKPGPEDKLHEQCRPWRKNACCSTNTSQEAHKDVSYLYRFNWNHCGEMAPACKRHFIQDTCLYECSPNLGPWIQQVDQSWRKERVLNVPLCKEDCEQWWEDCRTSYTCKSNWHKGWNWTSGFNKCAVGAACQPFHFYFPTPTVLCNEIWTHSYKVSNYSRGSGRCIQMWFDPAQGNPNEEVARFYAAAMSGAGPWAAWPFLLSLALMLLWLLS

Target: folate receptor on KB cells (Homo sapiens, UniProt P15328)
Assay: Relative binding affinity: competition with 3H-folic acid for binding to KB cells

pteroylhydrazido-benzenetetracarboxylic acid-diacetoxyscirpenol
relative binding activity compared to folic acid (100 nM 3H-folic acid, 15 minutes on ice, folic acid set to 1): 0.60
EC50 (read-out: EC50 (displacement of 3H-folic acid bound to folate receptor), 100 nM 3H-folic acid, 15 minutes on ice): 116 nM
